Compound potency records, mixed from different reports. Data source: NIAID ChemDB in PubChem.

Shared fields: tests in culture; species: HIV-1; measure: fold resistance

Blank or dashed fields: not listed here. Fold resistance has wild type as its base. Rows are shuffled and stem from different studies.

structure,changes,strain or isolate,cells,result
CC(C)(C)C(=O)c1sc(C(=O)NCc2ccccc2)c(O)c1O,INTG-N155H,-,-,1
O=c1[nH]cnc2c1ncn2[C@H]1CC[C@@H](CO)O1,RT-K65R,K65R,-,7
Cc1cn([C@H]2C[C@H](N=[N+]=[N-])[C@@H](CO)O2)c(=O)[nH]c1=O,IN-T66I S153Y N155S,-,-,1
Cc1ccnc2c1NC(=O)c1cccnc1N2C1CC1,RT-A98G K103R,BCF06,PBMC,1.2
COC(=O)N[C@H](C(=O)N[C@@H](Cc1ccccc1)[C@@H](O)CN(Cc1ccc(-c2ccccn2)cc1)NC(=O)[C@@H](NC(=O)OC)C(C)(C)C)C(C)(C)C,L10I G48V I54V A71V I84V L90M SQV resistant,NL4-3,MT-4,>250
CC(C)(C)NC(=O)[C@@H]1C[C@@H]2CCCC[C@@H]2CN1C[C@@H](O)[C@H](Cc1ccccc1)NC(=O)[C@H](CC(N)=O)NC(=O)c1ccc2ccccc2n1,PR-G48V I54V A71T V82A,RF,MT-2,17.6
Nc1nc2c(ncn2[C@H]2CO[C@@H](CO)O2)c(=O)[nH]1,RT-M41L D67N T69D M184V L210W T215Y K219R/K,RT M41L 67N 69D 184V 210W 215Y 219R/K,-,1.1
CC(=O)Oc1ccc(/C=C/C(=O)O[C@@H](C(=O)O)[C@@H](OC(=O)/C=C/c2ccc(OC(C)=O)c(OC(C)=O)c2)C(=O)O)cc1OC(C)=O,AMD2763-resistant,NL4-3,MT-4,>9.25
O=C1O[C@H]2[C@@H]3OC(=O)c4cc(O)c(O)c(O)c4-c4c(cc(O)c(O)c4O)C(=O)OC[C@H]2O[C@@H](OC(=O)c2cc(O)c(O)c(O)c2)[C@@H]3OC(=O)c2cc(O)c(O)c3c2[C@@H]2C1=CC(=O)[C@](O)(O3)C2(O)O,RT-K103N,NNRTI-resistant (RT K103N) ARP1010,MAGI,1.12
Nc1nc2c(ncn2[C@H]2CO[C@@H](CO)O2)c(=O)[nH]1,RT-L74V,DXG 9X(RT-L74V),-,4.2
CC(C)CN(C[C@@H](O)[C@H](Cc1ccccc1)NC(=O)O[C@H]1CO[C@H]2OCC(F)(F)[C@H]21)S(=O)(=O)c1ccc(N)cc1,L10F V32I M46I I45M A71V I84V APV resistant,NL4-3,MT-4,187
CC(C)=CCN1c2cc(Cl)cc3[nH]c(=S)n(c23)C[C@@H]1C,RT-M41L T215Y Y181C,-,MT-4,>30
Nc1ccn([C@H]2CC[C@@H](CO)O2)c(=O)n1,RT-D67N K70R V108A I135T,IIIB-AZT-2 (RT D67N K70R V108A I135T),MT-4,1.71
O=c1[nH]cnc2c1ncn2[C@H]1CC[C@@H](CO)O1,RT-A98G K103R,BCF06,PBMC,1.06
O=c1[nH]cnc2c1ncn2[C@H]1CC[C@@H](CO)O1,RT-K65R,-,-,7
CC(C)=CCN1Cc2cc(Cl)cc3[nH]c(=S)n(c23)C[C@@H]1C,RT-A98G,VAU (RT-A98G),PBMC,4
COc1ccc(S(=O)(=O)N(CC(C)C)C[C@@H](O)[C@H](Cc2ccccc2)NC(=O)O[C@H]2CO[C@H]3OCC(F)(F)[C@H]32)cc1,M46I I50V N38K M36I GRL05010-resistant,NL4-3,MT-4,58
O=C(NCc1ccc(F)cc1)c1nc(N2CCCCS2(=O)=O)c2cccnc2c1O,INTG-T66I S153Y,-,-,3

A second listing of 2 rows from above:

structure,changes,strain or isolate,cells,result
Nc1nc2c(ncn2[C@H]2CO[C@@H](CO)O2)c(=O)[nH]1,RT-M41L D67N T69D M184V L210W T215Y K219R/K,RT M41L 67N 69D 184V 210W 215Y 219R/K,-,1.1
CC(C)=CCN1c2cc(Cl)cc3[nH]c(=S)n(c23)C[C@@H]1C,RT-M41L T215Y Y181C,-,MT-4,>30